Article PMC4109310, “An atomic-resolution view of neofunctionalization in the evolution of apicomplexan lactate dehydrogenases” (eLife, 2014)

Tested on: AncLDH*
Details: 200 uM NADH, 50 mM Tris pH 7.5, 50 mM KCl, 25 C

For `CC(=O)C(=O)O` [pyruvate], the KM was “AncLDH* is a strict LDH”.
